Results of unrelated studies side by side (data: NIAID ChemDB).

Shared fields: tests in culture; agent: HIV-1; method: cytopathic effect / MTT; measure: EC50

ECn: concentration that inhibits the pathogen or its effect by n%. Lines come from different laboratories, so protocols vary. a–b is a range or a potency band.

{"structure": "O=C(O)c1ccc(Nc2nc3cc(C(F)(F)F)ccc3n3cccc23)cc1", "cells": "MT-4", "value": ">15 µM"}
{"structure": "Brc1ccccc1-c1nnc2sc(CC34CC5CC(CC(C5)C3)C4)nn12", "strain or isolate": "IIIB", "cells": "MT-4", "value": ">24.7 µg/mL"}
{"structure": "C#CCOCN1C=CC(=O)NS1(=O)=O", "cells": "MT-4", "value": ">400 µg/mL"}
{"structure": "Brc1cccc(-c2nnc3sc(CC45CC6CC(CC(C6)C4)C5)nn23)c1", "strain or isolate": "IIIB", "cells": "MT-4", "value": ">125 µg/mL"}
{"structure": "CN1C=C(C(=O)O)Cc2ccc(N3CCN(c4nc5ccccc5s4)CC3)nc21", "strain or isolate": "IIIB", "cells": "MT-4", "value": "0.06 µM"}
{"structure": "Nc1nc(N2CCCCC2)c2ncn(CCOCP(=O)(O)O)c2n1", "strain or isolate": "IIIB", "cells": "CEM", "value": ">4 µg/mL"}
{"structure": "O=C(O)c1ccc(O)c(O)c1", "strain or isolate": "IIIB", "cells": "MT-4", "value": "17 µg/mL"}
{"structure": "Cc1cccc(-c2nnc3sc(CC45CC6CC(CC(C6)C4)C5)nn23)c1", "strain or isolate": "IIIB", "cells": "MT-4", "value": ">10.9 µg/mL"}
{"structure": "CC(C)(C)NC(=O)[C@@H]1C[C@@H]2CCCC[C@@H]2CN1C[C@@H](OC(=O)NCCCCOc1ccc(C[C@H](N)C(=O)O)cc1)[C@H](Cc1ccccc1)NC(=O)[C@H](CC(N)=O)NC(=O)c1ccc2ccccc2n1", "strain or isolate": "IIIB", "cells": "MT-4", "value": "6 µM"}
{"structure": "CC(C)Oc1ccccc1CNC(=O)c1ccc2cnccc2n1", "strain or isolate": "IIIB", "cells": "CEM + CEM-SS", "value": ">31 µM"}
{"structure": "CCOC(CSc1nc(Cc2ccccc2)c(C(C)C)c(=O)[nH]1)OCC", "strain or isolate": "IIIB", "cells": "MT-4", "value": ">100 µM"}
{"structure": "CC(C)C[C@H](NC(=O)OC(C)(C)C)C(=O)O[C@H](CN1C[C@H]2CCCC[C@H]2C[C@H]1C(=O)NC(C)(C)C)[C@H](Cc1ccccc1)NC(=O)[C@H](CC(N)=O)NC(=O)c1ccc2ccccc2n1", "strain or isolate": "IIIB", "cells": "MT-4", "value": "0.485 µM"}
{"structure": "Cc1ccccc1-c1nnc2sc(CC34CC5CC(CC(C5)C3)C4)nn12", "strain or isolate": "IIIB", "cells": "MT-4", "value": ">11.5 µg/mL"}
{"structure": "N#CCCN1c2ccccc2C2C1C=C(C#N)C(=O)N2c1ccc([N+](=O)[O-])cc1", "strain or isolate": "LAI", "cells": "MT-4", "value": "1–32 µM"}
{"structure": "CCC(C)[C@@H](C(=O)N[C@@H](Cc1ccccc1)[C@H](O)CN(CC1CCCC1)S(=O)(=O)c1ccc(/C=N/O)cc1)N1CCN(Cc2cccnc2C)C1=O", "mutations": "PR-L10F V32I M46I I47V Q68E I84V", "strain or isolate": "A17 (LPV-resistant)", "cells": "MT-4", "value": "0.002 µM"}
{"structure": "CCOC(CSc1nc(Cc2cccc3ccccc23)c(CC)c(=O)[nH]1)OCC", "strain or isolate": "IIIB", "cells": "MT-4", "value": ">100 µM"}
{"structure": "CCOC(=O)c1ccc(OCc2nc3ccccc3n3cccc23)cc1", "cells": "MT-4", "value": ">100 µM"}
{"structure": "Cc1c(O)cccc1C(=O)N[C@@H](CSc1ccccc1)[C@@H](CN1C[C@H]2CCCC[C@H]2C[C@H]1C(=O)NC(C)(C)C)OC(=O)NCCCCOc1ccc(C[C@H](N)C(=O)O)cc1", "strain or isolate": "IIIB", "cells": "MT-4", "value": ">10 µM"}
{"structure": "CN(C)c1nc(N)nc2c1ncn2CCOCP(=O)(O)O", "strain or isolate": "IIIB", "cells": "MT-4", "value": "0.4 µg/mL"}
{"structure": "O=C(O)CCC(NC(=O)c1ccc(Nc2nc3cc(C(F)(F)F)ccc3n3cccc23)cc1)C(=O)O", "cells": "MT-4", "value": ">100 µM"}
{"structure": "O=C(NCCc1ccccc1)C1=Cc2ccncc2CC1", "strain or isolate": "RF", "cells": "CEM + CEM-SS", "value": ">34 µM"}
{"structure": "O=C(O)c1cc(O)c(O)c(O)c1", "strain or isolate": "IIIB", "cells": "MT-4", "value": "11 µg/mL"}
{"structure": "Nc1cc2c(=O)c(C(=O)O)cn(C3CC3)c2nc1N1CCN(c2ccccn2)CC1", "strain or isolate": "IIIB", "cells": "MT-4", "value": "1.3 µM"}
{"structure": "CCc1c(Cc2cccc3ccccc23)nc(SCC2OCCO2)[nH]c1=O", "strain or isolate": "IIIB", "cells": "MT-4", "value": ">100 µM"}
{"structure": "O=C(O)c1cn(C2CC2)c2nc(N3CCN(c4ccccn4)CC3)ccc2c1=O", "strain or isolate": "IIIB", "cells": "MT-4", "value": ">8.32 µM"}
{"structure": "CCC(C)[C@@H](C(=O)N[C@@H](Cc1ccccc1)[C@H](O)CN(CC(C)C)S(=O)(=O)c1ccc(/C=N/O)cc1)N1CC(=O)N(Cc2cccnc2)C1=O", "cells": "MT-4", "value": "0.004 µM"}
{"structure": "C[C@H](Cn1cnc2c(N(C)C)ncnc21)OCP(=O)(O)O", "strain or isolate": "IIIB", "cells": "CEM", "value": "0.7 ± 0.1 µg/mL"}
{"structure": "CC(C)c1c(Cc2ccccc2)n2c(nc1=O)SCC2OCCO", "strain or isolate": "IIIB", "cells": "MT-4", "value": ">100 µM"}
{"structure": "Cc1cc(O)ccc1O", "strain or isolate": "IIIB", "cells": "MT-4", "value": "72 µg/mL"}
{"structure": "CC1=CC(=O)N(COCC[Si](C)(C)C(C)(C)C)S(=O)(=O)N1COCC[Si](C)(C)C(C)(C)C", "cells": "MT-4", "value": ">400 µg/mL"}
{"structure": "O=C(O)c1ccc(N2C(=O)C=CC3Nc4ccccc4C32)cc1", "strain or isolate": "LAI", "cells": "MT-4", "value": "1–32 µM"}
{"structure": "CCc1c(Cc2cc(C)cc(C)c2)nc2n(c1=O)C(OCCO)CS2", "strain or isolate": "IIIB", "cells": "MT-4", "value": ">100 µM"}
{"structure": "C=CCN1c2ccccc2C2C1C=C(C#N)C(=O)N2c1ccc([N+](=O)[O-])cc1", "strain or isolate": "LAI", "cells": "MT-4", "value": "<1 µM"}
{"structure": "O=C(O)c1cn(C2CC2)c2nc(N3CCN(c4nc5ccccc5s4)CC3)ccc2c1=O", "strain or isolate": "IIIB", "cells": "MT-4", "value": "0.05 µM"}
{"structure": "NC1=NS(=O)(=O)N(COCc2ccccc2)C=C1", "cells": "MT-4", "value": ">400 µg/mL"}
{"structure": "C[C@H](CC1CNC2C1CC(N)CN2N)OCP(=O)(O)O", "strain or isolate": "IIIB", "cells": "MT-4", "value": ">100 µg/mL"}
{"structure": "CC(=O)OCCOCN1C=CC(N)=NS1(=O)=O", "cells": "MT-4", "value": ">400 µg/mL"}
{"structure": "Nc1nc(NC2CCCCC2)c2ncn(CCOCP(=O)(O)O)c2n1", "strain or isolate": "IIIB", "cells": "MT-4", "value": "5.7 µg/mL"}
{"structure": "CC(C)(C)NC(=O)[C@@H]1CN(Cc2cccnc2)CCN1C[C@@H](O)C[C@@H](Cc1ccccc1)C(=O)N[C@H]1c2ccccc2C[C@H]1OC(=O)CCCCOc1ccc(C[C@H](N)C(=O)O)cc1", "strain or isolate": "IIIB", "cells": "MT-4", "value": "0.047 µM"}
{"structure": "CCC(C)[C@@H](C(=O)N[C@@H](Cc1ccccc1)[C@H](O)CN(CC(C)C)S(=O)(=O)c1ccc(/C=N/O)cc1)N1CCN(Cc2ccncc2)C1=O", "conditions": "50% human serum", "cells": "MT-4", "value": "0.023 µM"}
{"structure": "CC1=CC(=O)NS(=O)(=O)N1COCc1ccccc1", "cells": "MT-4", "value": ">400 µg/mL"}
{"structure": "CN(C)n1cc(C(=O)O)c(=O)c2cc(N)c(N3CCN(c4ccccn4)CC3)cc21", "strain or isolate": "IIIB", "cells": "MT-4", "value": ">1.15 µM"}
{"structure": "CCCCCCCCCCCCCCCC(=O)OCC(COC(=O)CCCCCCCCCCCCCCC)OC(=O)CCC(=O)O[C@@H](C[C@@H](Cc1ccccc1)C(=O)N[C@H]1c2ccccc2C[C@H]1OC(=O)CCC(=O)OC(COC(=O)CCCCCCCCCCCCCCC)COC(=O)CCCCCCCCCCCCCCC)CN1CCN(Cc2cccnc2)C[C@H]1C(=O)NC(C)(C)C", "strain or isolate": "IIIB", "cells": "MT-4", "value": ">10 µM"}
{"structure": "CCOC(=O)c1ccc(N2C(=O)C=CC3Nc4ccccc4C32)cc1", "strain or isolate": "LAI", "cells": "MT-4", "value": ">32 µM"}
{"structure": "CCC(C)[C@@H](C(=O)N[C@@H](Cc1ccccc1)[C@H](O)CN(CC(C)C)S(=O)(=O)c1ccc(/C=N/O)cc1)N1CCN(Cc2cccnc2)C1=O", "conditions": "50% human serum", "cells": "MT-4", "value": "0.029 µM"}
{"structure": "O=C(O)CCCCCCCCCCCCC(=O)NC(CO[C@@H]1O[C@H](CO)[C@H](O)[C@H](O)[C@H]1O)C(=O)NCCOS(=O)(=O)O", "strain or isolate": "IIIB", "cells": "MT-4", "value": "20 µM"}
{"structure": "COC1CSc2nc(=O)c(C(C)C)c(Cc3ccccc3)n21", "strain or isolate": "IIIB", "cells": "MT-4", "value": ">100 µM"}